Test results: patent US20070134256A1 (US Dept. of Health and Human Services, published 2007)

Tests used:
[1] = target: T1, DENV-2 New Guinea B (NGB) parent virus (dengue type 2 virus); test: cell-based or functional assay
[2] = target: T1, DENV-2 New Guinea B (NGB) parent virus

B1: chimpanzee Fab 1A5 (Fab, V domains shown)
VH: EVQLLESGGGLVQPGGSRRLSCAASGFTISDNVMHWVRQAPGKGLEWVALIYSADTTHYADSVKGRFTISRDNSKNTLYLQMDSLRPEDTAVYYCAREYCTGDTCFAHFDYWGQGTLVSVSS
VL: ELQMTQSPSSVSASVGDTVTIACRASQSITNYLSWYQQKPGKAPKLLIYHASTLQSGIPSRFSGSGSGTDFTLTISSLQPDDFATYYCHYGYGTHTFGQGTKLEIKR
[1]
  PRNT50 titer: 0.74 µg/mL
[2]
  Kd: 0.47 nM
